This note sets out measurements from article PMC11258689, “A Snake Venom Peptide and Its Derivatives Prevent Aβ42 Aggregation and Eliminate Toxic Aβ42 Aggregates In Vitro” (ACS Chemical Neuroscience, 2024).

Structures are written as SMILES. Where “and” joins values, the source holds several entries; their conditions need not be identical. Equal entries are not always repeated. Residues, ends and D or L forms follow the SMILES beside them.

This series can be described thus: Circular dichroism, secondary structure content (BeStSel). It counts as physicochemical. Conditions: CD, 30 μM peptide in ddH2O, far-UV 190-260 nm. Background: Circular dichroism is the unequal absorption of left and right circularly polarised light.

With `COC(=O)[C@H](CCCCN)NC(=O)[C@H](CCCCN)NC(=O)[C@H](CO)NC(=O)[C@H](CO)NC(=O)[C@H](CCCCN)NC(=O)[C@H](Cc1c[nH]c2ccccc12)NC(=O)[C@H](CCCNC(=N)N)NC(=O)[C@H](Cc1c[nH]c2ccccc12)NC(=O)[C@H](CCCNC(=N)N)NC(=O)[C@H](CO)NC(=O)[C@H](CC(=O)O)NC(=O)[C@H](CCSC)NC(=O)[C@H](CCCCN)NC(C)=O` [CDP-2] (Ac-KMDSRWRWKSSKK-OMe), the “Others (secondary structure)” value amounted to 97%; the α-helix was 3% and < 7%.

As for `COC(=O)[C@H](CCCCN)NC(=O)[C@H](CCCCN)NC(=O)[C@H](CS)NC(=O)[C@H](CS)NC(=O)[C@H](CCCCN)NC(=O)[C@H](Cc1c[nH]c2ccccc12)NC(=O)[C@H](CCCNC(=N)N)NC(=O)[C@H](Cc1c[nH]c2ccccc12)NC(=O)[C@H](CCCNC(=N)N)NC(=O)[C@H](CS)NC(=O)[C@H](CC(=O)O)NC(=O)[C@H](CCSC)NC(=O)[C@H](CCCCN)NC(C)=O` [CDP-1] (Ac-KMDCRWRWKCCKK-OMe; C-terminus assumed), the “Others (secondary structure)” value was 75% and the α-helix was found to be 25%.
